Among the data in ChEMBL document CHEMBL2177067 (J Med Chem, 2012) are Kiuc values, retold here.

The experiment concerns Staphylococcus aureus. In words: Noncompetitive inhibition of Staphylococcus aureus ATCC 25923 replicative DnaB helicase using Hel-5'FAM:Hel-3'BHQ as substrate assessed as DNA duplex strand-unwinding by FRET assay.

On to `Cc1c(CCC(=O)O)c(=O)oc2c(C)c(OCc3ccc(-c4ccccc4)cc3)ccc12`, for which the Kiuc came out at 4 µM.
